Anti-infective test results gathered from many reports (values: NIAID ChemDB through PubChem).

Common to all: whole-cell or culture tests; species: Candida albicans; endpoint: inhibition

Blank or dashed fields: not listed here. Percent inhibition refers to the dose given; in toxicity tests it is the harm to the cells. "inactive" is the filed call at that dose; no cut-off is given. Neighbouring rows are from separate reports.

smiles | strain or isolate | changes | read by | setting | dose | value
O=S(c1ccccc1)c1c(Sc2ccccc2)c(O)c2ccccc2c1O | - | - | - | - | 0.2 µg/mL | 41.2%
O=S(=O)(Nc1nccs1)c1ccc(N=Cc2c[nH]c3ccccc23)cc1 | - | - | - | - | 200 µg/mL | 40%
Cc1ccc(-n2cc(-c3ccc(F)cc3)c(C(=O)O)c2C)cc1 | 40 strains | - | - | - | 11.91 µg/mL | 2.5%
Cc1cc(C=Nc2ccc(N=Cc3cc(C)cc(/C=N/Nc4nc5ccccc5s4)c3O)cc2)c(O)c(/C=C/Nc2nc3ccccc3s2)c1 | - | - | turbidity | - | 100 µg/mL | 29.73%
COC(=O)[C@H]1[C@@H]2C[C@@H](O[C@@H]3O[C@H](C)[C@@H](O)[C@H](N)[C@@H]3O)/C=C/C=C/C=C/C=C/C=C/C=C/C=C/[C@H](C)[C@@H](O)[C@H](C)[C@H](C)OC(=O)C[C@H](O)C[C@H](O)[C@@H](O)CC[C@H](O)C[C@H](O)C[C@](O)(C[C@@H]1O)O2 | - | - | - | - | 5 µg/mL | 100%
Clc1ccc(COC(Cn2ccnc2)c2ccc(Cl)cc2Cl)c(Cl)c1 | 439 isolates | - | - | 24 h | 4 µg/mL | 84%
CC(C)(O)c1cn(-c2ccccc2)nn1 | URM 3716 | - | broth dilution | - | 2048 µg/mL | 0%
O=S(c1ccccc1)c1c(Sc2ccc(Br)cc2)c(O)c2ccccc2c1O | - | - | - | - | 0.2 µg/mL | 39.6%
CS(=O)(=O)OCC1COC(Cn2ccnc2)(c2ccc(-c3ccccc3)cc2)O1 | 44 strains | - | - | - | 256 µg/mL | 97.5%
Nc1[nH]c(=O)ncc1F | - | - | - | - | 5 µg/mL | 80%
C/C(=N\c1n[nH]c(N)n1)c1ccccn1.C/C(=N\c1n[nH]c(N)n1)c1ccccn1.[O]=[V+2] | - | - | agar diffusion / agar | - | 200 µg/mL | 55%
Cc1ccc(-n2cc(C(C)(C)O)nn2)cc1C | URM 4127 | - | broth dilution | - | 2048 µg/mL | 0%
Cc1c(C(=O)O)c(-c2ccc(F)cc2)cn1-c1ccc(Cl)cc1 | 40 strains | - | - | - | 26.04 µg/mL | 2.5%
Cc1c(C(=O)N(CCO)CCO)cc(-c2ccc([N+](=O)[O-])cc2)n1-c1ccccc1Cl | 20 strains | - | - | - | 200 µg/mL | 0%
COc1ccc(C(=O)Cn2cncn2)cc1 | Fluconazole-resistant | - | broth dilution | - | 100 µg/mL | 60%
O=[N+]([O-])c1c(Cl)cccc1-c1c[nH]cc1Cl | 40 strains | - | - | - | 47.92 µg/mL | 5%
O=C(O)CCc1ccccc1 | MY1055 | - | - | - | 1000 µg/mL | 29.4%
CC(=O)N1CCN(c2ccc(OC[C@H]3CO[C@](Cn4ccnc4)(c4ccc(-c5ccccc5)cc4)O3)cc2)CC1 | 44 strains | - | - | - | 256 µg/mL | 38.7%
COc1ccc(C(O)C(Cc2ccc(Cl)cc2Cl)c2ccc(Cl)cc2)cc1 | 28 strains | - | - | - | 256 µg/mL | 0%
O=[N+]([O-])c1ccc(Sc2c(S(=O)c3ccccc3)c(O)c3ccccc3c2O)cc1 | - | - | - | - | 0.2 µg/mL | 42.2%
CC(N=Cc1ccccc1O)C(=O)O | - | - | - | - | 200 µg/mL | 7%
COc1ccc(C(=O)Cn2ccnc2)cc1 | Fluconazole-resistant | - | broth dilution | - | 100 µg/mL | 79%
COc1ccc(C(Cc2ccc(Cl)cc2)n2cnnc2)cc1 | 28 strains | - | - | - | 256 µg/mL | 100%
O=C1C(O)C(CO)OC(Oc2c[nH]c3ccccc23)C1O | ATCC 10231 | - | - | - | 400 µg/mL | 49.1%
Cc1c(C(=O)N2CCN(C)CC2)cc(-c2ccc([N+](=O)[O-])cc2)n1Cc1ccccc1 | 20 strains | - | - | - | 200 µg/mL | 0%
C=CC(C/C(=N/OS(=O)(=O)O)SC1OC(CO)C(O)C(O)C1O)OC(=O)CC1(O)C(=O)Nc2ccccc21 | ATCC 10231 | - | - | - | 400 µg/mL | 79.1%
Nc1nc(/N=C/c2c(O)ccc3ccccc23)n[nH]1 | - | - | agar diffusion / agar | - | 200 µg/mL | 48%
O=C1C(Nc2ccccc2)=C(S(=O)c2ccccc2)C(=O)c2ccccc21 | - | - | - | - | 0.2 µg/mL | 41.4%
CS(=O)(=O)c1ccc(NC(=O)Oc2c(Cl)cc(Cl)cc2Cl)cc1 | - | - | - | - | 25 µg/mL | inactive
CCCCOc1ccc(SCC#CI)cc1 | CNCM 1180-79 | - | - | - | 78 µg/mL | 100%
OC[C@H]1CO[C@](Cn2ccnc2)(c2ccc(-c3ccccc3)cc2)O1 | 44 strains | - | - | - | 256 µg/mL | 97.5%
C[C@H]1[C@H](O)[C@@H](C)/C=C/C=C/C=C/C=C/C=C/C=C/C=C/[C@H](O[C@@H]2O[C@H](C)[C@@H](O)[C@H](N)[C@@H]2O)C[C@@H]2O[C@](O)(C[C@@H](O)C[C@@H](O)CC[C@H](O)[C@@H](O)C[C@@H](O)CC(=O)O[C@H]1C)C[C@H](O)[C@H]2C(=O)O | sap10 | - | broth dilution | - | 1 µg/mL | 100%
O=C(O)CC(=O)OCC1OC(Oc2c[nH]c3ccccc23)C(O)C(=O)C1O | ATCC 10231 | - | - | - | 400 µg/mL | 56.3%
NC(N)=NS(=O)(=O)c1ccc(N=Cc2c[nH]c3ccccc23)cc1 | - | - | - | - | 200 µg/mL | 35%
OC(Cn1cncn1)(Cn1cncn1)c1ccc(F)cc1F | - | - | - | - | 5 µg/mL | 86%
CC1(C)O[C@H]2[C@H](O)[C@@H](N=[N+]=[N-])C=C(c3ccc(C=O)cc3)[C@H]2O1 | ATCC 10231 | - | broth dilution / turbidity | - | 125 µg/mL | 100%
CCCOc1ccc(SCC#CCCN2CCN(C)CC2)cc1 | CNCM 1180-79 | - | - | - | 78 µg/mL | 50%
Cc1ccc(-c2cn(-c3ccc(Cl)cc3)c(C)c2C(=O)O)cc1 | 40 strains | - | - | - | 36.5 µg/mL | 65%
C/C(=N\c1n[nH]c(N)n1)c1ccccn1 | - | - | agar diffusion / agar | - | 200 µg/mL | 42%
CCCCOc1ccc(SCC#CCN2CCOCC2)cc1 | CNCM 1180-79 | - | - | - | 78 µg/mL | 75%
NCCCC[C@H](NC(=O)[C@H](CCCN=C(N)N)NC(=O)[C@H](CCCN=C(N)N)NC(=O)[C@H](CCCCN)NC(=O)[C@H](CCCCN)NC(=O)[C@@H](N)CCCCN)C(=O)N[C@@H](CCCN=C(N)N)C(=O)O | ATCC 10231 | - | - | - | 100 µM | 12%
Nc1nc(/N=C/c2ccc[nH]2)n[nH]1 | - | - | agar diffusion / agar | - | 200 µg/mL | 63%
COc1ccc(C(O)Cn2ccnc2)cc1 | Fluconazole-resistant | - | broth dilution | - | 100 µg/mL | 74%
Nc1nc(/N=C/c2c([O-])ccc3ccccc23)n[nH]1.Nc1nc(/N=C/c2c([O-])ccc3ccccc23)n[nH]1.[O]=[V+2] | - | - | agar diffusion / agar | - | 200 µg/mL | 61%
C[C@H]1[C@H](O)[C@@H](C)/C=C/C=C/C=C/C=C/C=C/C=C/C=C/[C@H](O[C@@H]2O[C@H](C)[C@@H](O)[C@H](N)[C@@H]2O)C[C@@H]2O[C@](O)(C[C@@H](O)C[C@@H](O)CC[C@H](O)[C@@H](O)C[C@@H](O)CC(=O)O[C@H]1C)C[C@H](O)[C@H]2C(=O)O | ATCC 90028 | cph1/efg1 (EFG1) | broth dilution | - | 1 µg/mL | 100%
COc1ccc(CC(=O)c2ccc(OC)cc2)cc1 | 28 strains | - | - | - | 256 µg/mL | 0%
CC(C)(O)c1cn(-c2ccc([N+](=O)[O-])cc2)nn1 | URM 4127 | - | broth dilution | - | 2048 µg/mL | 0%
Cc1c(C(=O)O)c(-c2ccc(Br)cc2)cn1-c1ccc(Br)cc1 | 40 strains | - | - | - | 12.29 µg/mL | 2.5%
OC[C@@H]1CO[C@](Cn2ccnc2)(c2ccc(-c3ccccc3)cc2)O1 | 44 strains | - | - | - | 256 µg/mL | 75.7%
O=C1C(Sc2ccc(Br)cc2)=C(Sc2ccc(Br)cc2)C(=O)c2ccccc21 | - | - | - | - | 0.2 µg/mL | 43.2%
Cc1c(C(=O)N(CCO)CCO)cc(-c2ccc([N+](=O)[O-])cc2)n1-c1ccc(Cl)cc1Cl | 20 strains | - | - | - | 200 µg/mL | 0%
CCC(C(=O)c1ccc(OC)cc1)c1ccc(Cl)cc1 | 28 strains | - | - | - | 256 µg/mL | 0%
Cc1noc(NS(=O)(=O)c2ccc(N=Cc3c[nH]c4ccccc34)cc2)c1C | - | - | - | - | 200 µg/mL | 45%
Cc1c(C(=O)N2CCN(C)CC2)cc(-c2ccc([N+](=O)[O-])cc2)n1-c1ccccc1Cl | 20 strains | - | - | - | 200 µg/mL | 0%
Cc1ccc(-c2cn(-c3ccc(Br)cc3)c(C)c2C(=O)O)cc1 | 40 strains | - | - | - | 158.33 µg/mL | 85.6%